Measured values published in patent publication US9381175B2, “Method for treating Chikungunya virus infection” (priority 2014, dated 2016).

System: CHIKV
Experiment: Western blot of CHIKV structural protein production in BHK-21 cells
Details: 350 μM added at 0, 1, 2, 3 or 4 hours after infection

## Cc1ccc(C(=O)Nc2ccc(S(=O)(=O)O)c3cc(S(=O)(=O)O)cc(S(=O)(=O)O)c23)cc1NC(=O)c1cccc(NC(=O)Nc2cccc(C(=O)Nc3cc(C(=O)Nc4ccc(S(=O)(=O)O)c5cc(S(=O)(=O)O)cc(S(=O)(=O)O)c45)ccc3C)c2)c1 [suramin]
  time-of-addition: stage in which the inhibition activity takes place: 0-2 hours post infection
